Tested on: strawberries
Assay: Average daily mass loss rate, residues and fungal growth of coated strawberries
Details: spray coated, 10 mg/mL in ethanol

| Compound | visible residues on surface |
| --- | --- |
| CCCCCCCCCCCCCCCC(=O)OCC(O)CO (centres unmarked) [PA-1G, 2,3-dihydroxypropan-1-yl palmitate] | heavy (wide-spread visible residues covering most or all of the surface) |
| CCCCCCCCCCCCCCCC(=O)OC(CO)CO [PA-2G, 1,3-dihydroxypropan-2-yl palmitate] | heavy (wide-spread visible residues covering most or all of the surface) |
